Source: PMC3084272, “GPVI and GPIbα Mediate Staphylococcal Superantigen-Like Protein 5 (SSL5) Induced Platelet Activation and Direct toward Glycans as Potential Inhibitors” (2011)

Chains of the proteins cited; added tags and fusions are not shown. Residues count along the entry.
UniProt Q2G1S6, 31-234 limits assumed: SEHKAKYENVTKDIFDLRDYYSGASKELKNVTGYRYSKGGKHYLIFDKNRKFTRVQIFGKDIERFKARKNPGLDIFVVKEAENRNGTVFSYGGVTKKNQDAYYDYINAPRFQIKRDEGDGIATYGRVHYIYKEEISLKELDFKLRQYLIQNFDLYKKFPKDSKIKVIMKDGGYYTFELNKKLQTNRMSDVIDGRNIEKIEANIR

molecular target: SSL5 (Staphylococcal superantigen-like protein 5) (Staphylococcus aureus, UniProt Q2G1S6); test: printed glycan microarray (CFG Core H), fluorescent-labelled SSL5; conditions: SSL5 200 µg/ml; glycan immobilised through linker

| Compound | Mean RFU |
| --- | --- |
| CC(=O)N[C@H]1[C@H](O[C@H]2[C@@H](O)[C@@H](CO)O[C@@H](O[C@H]3[C@H](O)[C@@H](CO)O[C@@H](OCCN)[C@@H]3NC(C)=O)[C@@H]2O)O[C@H](CO)[C@@H](O[C@@H]2O[C@H](CO)[C@H](O)[C@H](O[C@]3(C(=O)O)C[C@H](O)[C@@H](NC(C)=O)[C@H]([C@H](O)[C@H](O)CO)O3)[C@H]2O)[C@@H]1O | 10202 RFU |
| CC(=O)N[C@H]1[C@H](OCCN)O[C@H](CO)[C@@H](O[C@@H]2O[C@H](CO)[C@H](O)[C@H](O[C@]3(C(=O)O)C[C@H](O)[C@@H](NC(C)=O)[C@H]([C@H](O)[C@H](O)CO)O3)[C@H]2O)[C@@H]1O[C@@H]1O[C@@H](C)[C@@H](O)[C@@H](O)[C@@H]1O | 14264 RFU |
| Neu5Acα2-3Galβ1-4GlcNAcβ1-2Manα1-3(Neu5Acα2-3Galβ1-4GlcNAcβ1-2Manα1-6)Manβ1-4GlcNAcβ1-4GlcNAcβ-Sp12 | 12517 RFU |
| CC(=O)N[C@H]1[C@H](OCCN)O[C@H](CO)[C@@H](O[C@@H]2O[C@H](CO)[C@H](O)[C@H](O[C@@H]3O[C@H](CO)[C@@H](O[C@@H]4O[C@H](CO)[C@H](O)[C@H](O[C@]5(C(=O)O)C[C@H](O)[C@@H](NC(C)=O)[C@H]([C@H](O)[C@H](O)CO)O5)[C@H]4O)[C@H](O)[C@H]3NC(C)=O)[C@H]2O)[C@@H]1O | 14449 RFU |
| CC(=O)N[C@H]1[C@H](OC[C@H]2OC(O[C@H](C)[C@H](N)C(=O)O)[C@H](NC(C)=O)[C@@H](O[C@@H]3O[C@H](CO)[C@H](O)[C@H](O[C@]4(C(=O)O)C[C@H](O)[C@@H](NC(C)=O)[C@H]([C@H](O)[C@H](O)CO)O4)[C@H]3O)[C@H]2O)O[C@H](CO)[C@@H](O[C@@H]2O[C@H](CO)[C@H](O)[C@H](O[C@]3(C(=O)O)C[C@H](O)[C@@H](NC(C)=O)[C@H]([C@H](O)[C@H](O)CO)O3)[C@H]2O)[C@@H]1O[C@@H]1O[C@@H](C)[C@@H](O)[C@@H](O)[C@@H]1O (stereo partly shown) | 7498 RFU |
| CC(=O)N[C@@H]1[C@@H](O)[C@H](O[C@@H]2O[C@H](CO)[C@@H](O[C@@H]3O[C@H](CO[C@H]4O[C@H](CO)[C@@H](O)[C@H](O)[C@@H]4O[C@@H]4O[C@H](CO)[C@@H](O[C@@H]5O[C@H](CO[C@]6(C(=O)O)C[C@H](O)[C@@H](NC(C)=O)[C@H]([C@H](O)[C@H](O)CO)O6)[C@H](O)[C@H](O)[C@H]5O)[C@H](O)[C@H]4NC(C)=O)[C@@H](O)[C@H](O[C@H]4O[C@H](CO)[C@@H](O)[C@H](O)[C@@H]4O[C@@H]4O[C@H](CO)[C@@H](O[C@@H]5O[C@H](CO)[C@H](O)[C@H](O[C@]6(C(=O)O)C[C@H](O)[C@@H](NC(C)=O)[C@H]([C@H](O)[C@H](O)CO)O6)[C@H]5O)[C@H](O)[C@H]4NC(C)=O)[C@@H]3O)[C@H](O)[C@H]2NC(C)=O)[C@@H](CO)O[C@H]1NC(=O)C[C@H](N)C(=O)O | 8043 RFU |
| Neu5Acα2-3Galβ1-3(Neu5Acα2-3Galβ1-4GlcNAcβ1-6)GalNAc–Sp14 | 9183 RFU |
| CC(=O)N[C@H]1[C@H](OCCCN)O[C@H](CO)[C@@H](O[C@@H]2O[C@H](CO)[C@H](O)[C@H](O[C@]3(C(=O)O)C[C@H](O)[C@@H](NC(C)=O)[C@H]([C@H](O)[C@H](O)CO)O3)[C@H]2O)[C@@H]1O[C@@H]1O[C@H](CO)[C@H](O)[C@H](O[C@]2(C(=O)O)C[C@H](O)[C@@H](NC(C)=O)[C@H]([C@H](O)[C@H](O)CO)O2)[C@H]1O | 7865 RFU |
| CC(=O)N[C@H]1[C@H](OCCCN)O[C@H](CO)[C@@H](O[C@@H]2O[C@H](CO)[C@H](O)[C@H](O[C@]3(C(=O)O)C[C@H](O)[C@@H](NC(C)=O)[C@H]([C@H](O)[C@H](O)CO)O3)[C@H]2O)[C@@H]1O | 13546 RFU |
| CC(=O)N[C@H]1[C@H](OCCN)O[C@H](CO)[C@@H](O[C@@H]2O[C@H](CO)[C@H](O)[C@H](O[C@@H]3O[C@H](CO)[C@@H](O[C@@H]4O[C@H](CO)[C@H](O)[C@H](O[C@@H]5O[C@H](CO)[C@@H](O[C@@H]6O[C@H](CO)[C@H](O)[C@H](O[C@]7(C(=O)O)C[C@H](O)[C@@H](NC(C)=O)[C@H]([C@H](O)[C@H](O)CO)O7)[C@H]6O)[C@H](O)[C@H]5NC(C)=O)[C@H]4O)[C@H](O)[C@H]3NC(C)=O)[C@H]2O)[C@@H]1O | 15827 RFU |
| CC(=O)N[C@H]1[C@H](OCCN)O[C@H](CO)[C@@H](O[C@@H]2O[C@H](CO)[C@H](O)[C@H](O[C@@H]3O[C@H](CO)[C@@H](O[C@@H]4O[C@H](CO)[C@H](O)[C@H](O[C@@H]5O[C@H](CO)[C@@H](O[C@@H]6O[C@H](CO)[C@H](O)[C@H](O[C@]7(C(=O)O)C[C@H](O)[C@@H](NC(C)=O)[C@H]([C@H](O)[C@H](O)CO)O7)[C@H]6O)[C@H](O[C@@H]6O[C@@H](C)[C@@H](O)[C@@H](O)[C@@H]6O)[C@H]5NC(C)=O)[C@H]4O)[C@H](O[C@@H]4O[C@@H](C)[C@@H](O)[C@@H](O)[C@@H]4O)[C@H]3NC(C)=O)[C@H]2O)[C@@H]1O[C@@H]1O[C@@H](C)[C@@H](O)[C@@H](O)[C@@H]1O | 13772 RFU |
| CC(=O)N[C@H]1[C@H](OCCN)O[C@H](CO)[C@@H](O[C@@H]2O[C@H](CO)[C@H](O)[C@H](O[C@]3(C(=O)O)C[C@H](O)[C@@H](NC(C)=O)[C@H]([C@H](O)[C@H](O)CO)O3)[C@H]2O)[C@@H]1O | 9762 RFU |
| CC(=O)N[C@H]1[C@H](OCCCN)O[C@H](CO)[C@@H](O[C@@H]2O[C@H](CO)[C@H](O)[C@H](O[C@]3(C(=O)O)C[C@H](O)[C@@H](NC(C)=O)[C@H]([C@H](O)[C@H](O)CO)O3)[C@H]2O)[C@@H]1O[C@@H]1O[C@@H](C)[C@@H](O)[C@@H](O)[C@@H]1O | 15098 RFU |
| CC(=O)N[C@H]1[C@H](OCCN)O[C@H](CO)[C@@H](O[C@@H]2O[C@H](CO)[C@H](O)[C@H](O[C@]3(C(=O)O)C[C@H](O)[C@@H](NC(=O)CO)[C@H]([C@H](O)[C@H](O)CO)O3)[C@H]2O)[C@@H]1O[C@@H]1O[C@@H](C)[C@@H](O)[C@@H](O)[C@@H]1O | 8453 RFU |
| Neu5Acα2-6Galβ1-4GlcNAcβ1-2Manα1-3(Neu5Acα2-3Galβ1-4GlcNAcβ1-2Manα1-6)Manβ1-4GlcNAcβ1-4GlcNAcβ-Sp12 | 9385 RFU |
| CC(=O)N[C@H]1[C@H](O[C@H]2[C@@H](O)[C@@H](CO)O[C@@H](OCCCN)[C@@H]2O)O[C@H](CO)[C@@H](O[C@@H]2O[C@H](CO)[C@H](O)[C@H](O[C@]3(C(=O)O)C[C@H](O)[C@@H](NC(C)=O)[C@H]([C@H](O)[C@H](O)CO)O3)[C@H]2O)[C@@H]1O[C@@H]1O[C@@H](C)[C@@H](O)[C@@H](O)[C@@H]1O | 17612 RFU |
| CC(=O)N[C@H]1[C@H](OCCCN)O[C@H](CO)[C@@H](O[C@@H]2O[C@H](CO)[C@H](O)[C@H](O[C@@H]3O[C@H](CO)[C@@H](O[C@@H]4O[C@H](CO)[C@H](O)[C@H](O[C@]5(C(=O)O)C[C@H](O)[C@@H](NC(C)=O)[C@H]([C@H](O)[C@H](O)CO)O5)[C@H]4O)[C@H](O[C@@H]4O[C@@H](C)[C@@H](O)[C@@H](O)[C@@H]4O)[C@H]3NC(C)=O)[C@H]2O)[C@@H]1O | 15918 RFU |
| CC(=O)N[C@H]1[C@H](OC[C@H]2OC(O[C@H](C)[C@H](N)C(=O)O)[C@H](NC(C)=O)[C@@H](O[C@@H]3O[C@H](CO)[C@H](O)[C@H](O)[C@H]3O)[C@H]2O)O[C@H](CO)[C@@H](O[C@@H]2O[C@H](CO)[C@H](O)[C@H](O[C@]3(C(=O)O)C[C@H](O)[C@@H](NC(C)=O)[C@H]([C@H](O)[C@H](O)CO)O3)[C@H]2O)[C@@H]1O (stereo partly shown) | 8578 RFU |
| CC(=O)N[C@H]1[C@H](OCCN)O[C@H](CO)[C@@H](O[C@@H]2O[C@H](CO)[C@H](O)[C@H](O[C@]3(C(=O)O)C[C@H](O)[C@@H](NC(C)=O)[C@H]([C@H](O)[C@H](O)CO)O3)[C@H]2NC(C)=O)[C@@H]1O | 9449 RFU |
